From patent US20040058403A1

Molecular target: Bacillus anthracis protective antigen (PA) (Bacillus anthracis) (UniProt P13423)

## NlpA-[Dig scFv] (26-10 anti-digoxin/digoxigenin scFv fused to the NlpA anchor) (from UniProt P04846 24-29)
  M (mean fluorescence): 2.97
